Results: patent publication US20240122867A1, “CORONAL PROTEIN-COATED NANOPARTICLES AND USES THEREOF” (UNIVERSITY OF CENTRAL FLORIDA RESEARCH FOUNDATION, INC., priority 2021, published 2024)

B1: Phosphatidylinositide phosphatase SAC2 (protein, UniProt Q8CDA1 1-1132, looked up)
Phosphatidylinositide …: MELFQAKDHYILQQGERALWCSRRDGGLQLRPATDLLLAWNPICLGLVEGVIGKIQLHSDLPWWLILIRQKALVGKLPGDHEVCKVTKIAVLSLSEMEPQELELELCKKHHFGINKPEKIIPSPDDSKFLLKTFTNIKSNVSAPNKKKVKESKEKEKLERRLLEELLKMFMDSESFYYSLTYDLTNSVQRQSTGERDGRPLWQKVDDRFFWNKYMIQALTEIGTPDVDFWIIPIIQGFVQIEELVVNYNESSDDDKSSPETPPQDSTCVDDIHPRFLVALISRRSRHRAGMRYKRRGVDKNGNVANYVETEQLIHVHHHTLSFIQTRGSVPVFWSQVGYRYNPRPRLDKSEKETVDCFCAHFEEQLKIYKKQVIVNLVDQAGREKIIGDAYLKQVLLFNNPKLTYVSFDFHEHCRGMKFENVQTLTDAIHDIIIDMKWCWVDQAGVICKQEGIFRVNCMDCLDRTNVVQAAIARVVMEQQLKKLGVMPPEQPLPVKCNRTYQIMWANNGDSISRQYAGTAALKGDFTRTGERKLAGVMKDGVNSANRYYLSRFKDAYRQAVIDLMQGVPVTEDLYSIFTKEKEHEALHKESQRSHQELISQLLQSYMQLLLPGDEKFHGGWALVDCDPSLTDAAHRDVEVLLLLSNAAYYVAYYDDEVDKVNQYQRLGLEDLERIEIGPEPTLFGKPKFSCMRLHYRCKEAGGYFHTLRAVPRSPEEDGKDTLQCIAEMLQITKQAMGLDVPIIEKKLERKSSKPHEDIIGIRSQNQGSLAQGKSFLMSKFSSLNQKVKQTKSNVNIGNLRKLGNFTKPEMKVNFLKPNLKVNLWKSDSSLETMENPGVMGNKVQGESDGDISSDNDSYHSDEFLTNSKSEEDKQLANSLESVGPIDYILPSCGIIVSAPRLGSRSQSASSIDVSTHAPSEAAAGPGSELGKGLESPLKKSPSADSIHTRTGFTKPMDVYCQRFVQDAQNKMNDLSEIRSVAQKSEEGSHKTNRVSNEETQSEPMGQTPPRPSQLNVSCSVAGPPFLSVEPVHSVLSQKTPSSGSSLLELEAGLCVTPSSESSSSRAVSPFAKIRSSMVQVANITQAGLTHGINLAVAKVQKSPAEPEAVNEIQQNELKNMFTQCQTRIIQI
B2: Dematin (protein, UniProt Q9WV69 1-405, looked up)
Dematin: MERLQKQPLTSPGSVSSSRDSSVPGSPSSIVAKMDNQVLGYKDLAAIPKDKAILDIERPDLMIYEPHFTYSLLEHVELPRSRECSLSPKSTSPPPSPEVWAESRTLGIISQASTPRTTGTPRTSLPHFHHPETTRPDSNIYKKPPIYKQRESVGGSPQSKHLIEDLIIESSKFPAAQPPDPNQPAKIETDYWPCPPSLAVVETEWRKRKASRKGAEEEEEEEDDDSEEEIKAIRERQKEELSKVTSNLGKMILKEEMEKSLPIRRKTRSLPDRTPFHTSLHSGTSKSSSLPSYGRTTLSRLQSTEFSPSGSEAGSPGLQNGEGQRGRMDRGNSLPCVLEQKIYPYEMLVVTNKGRTKLPPGVDRMRLERHLSAEDFSRVFAMSPEEFGKLALWKRNELKKKASLF
B3: Serine protease inhibitor A3G (protein, UniProt Q5I2A0 1-440, looked up)
Serine protease inhibitor A3G: MAGVSPAVFGCPDVTLGRNTAVREVQENVTSVDSLTLVSSNTDFAFSLYRKLVLKNPDENVVFSPFSICTALALLSLGAKSNTLKEILEGLKFNLTETPEPDIHQGFRYLLDLLSQPGNQVQISTGSALFIEKHLQILAEFKEKARALYQAEAFTADFQQPLKATKLINDYVSNHTQGKIKELISGLKESTLMVLVNYIYFKGKWKNPFDPNDTFKSEFYLDEKRSVIVSMMKTGYLTTPYFRDEELSCTVVELKYTGNASAMFILPDQGRMQQVEASLQPETLRKWKNSLKPRMIHELRLPKFSISTDYSLEHILPELGIREVFSTQADLSAITGTKDLRVSQVVHKAVLDVAETGTEAAAATGMAGVGCCAVFDFLEIFFNRPFLMIISDTKAHIALFMAKVTNPERSMNFPNGEGASSQRLESKRLCFGDPLCLIGQ
B4: Ras-related protein Rab-19 (protein, UniProt P35294 1-217, looked up)
Ras-related protein Rab-19: MQFSSSSRTSDENVDYLFKVILIGDSNVGKTCVVQHFKSGVYSESQQNTIGVDFTVRSLEIDGKKVKMQVWDTAGQERFRTITQSYYRSAHAAIIAYDLTRRSTFESVPHWIHEIEKYGAANLVIMLIGNKSDLWEKRHVLFEDACTLAEKHGLLAVLETSAKESRNIDEVFVLMAKELIARNSLHLYGESAQQGLSQDSSPVLVAQVPNESTRCTC
B5: Alpha-1-antitrypsin 1-1 (protein, UniProt P07758 25-413, looked up)
Alpha-1-antitrypsin 1-1: EDVQETDTSQKDQSPASHEIATNLGDFAISLYRELVHQSNTSNIFFSPVSIATAFAMLSLGSKGDTHTQILEGLQFNLTQTSEADIHKSFQHLLQTLNRPDSELQLSTGNGLFVNNDLKLVEKFLEEAKNHYQAEVFSVNFAESEEAKKVINDFVEKGTQGKIAEAVKKLDQDTVFALANYILFKGKWKKPFDPENTEEAEFHVDESTTVKVPMMTLSGMLHVHHCSTLSSWVLLMDYAGNATAVFLLPDDGKMQHLEQTLSKELISKFLLNRRRRLAQIHFPRLSISGEYNLKTLMSPLGITRIFNNGADLSGITEENAPLKLSQAVHKAVLTIDETGTEAAAVTVLQMVPMSMPPILRFDHPFLFIIFEEHTQSPIFLGKVVDPTHK
B6: Neurofilament heavy polypeptide (protein, UniProt P19246 1-1090, looked up)
Neurofilament heavy …: MMSFGSADALLGAPFAPLHGGGSLHYSLSRKAGPGGTRSAAGSSSGFHSWARTSVSSVSASPSRFRGAASSTDSLDTLSNGPEGCVVAAVAARSEKEQLQALNDRFAGYIDKVRQLEAHNRSLEGEAAALRQQQAGRAAMGELYEREVREMRGAVLRLGAARGQLRLEQEHLLEDIAHVRQRLDEEARQREEAEAAARALARFAQEAEAARVELQKKAQALQEECGYLRRHHQEEVGELLGQIQGCGAAQAQAQAEARDALKCDVTSALREIRAQLEGHAVQSTLQSEEWFRVRLDRLSEAAKVNTDAMRSAQEEITEYRRQLQARTTELEALKSTKESLERQRSELEDRHQADIASYQDAIQQLDSELRNTKWEMAAQLREYQDLLNVKMALDIEIAAYRKLLEGEECRIGFGPSPFSLTEGLPKIPSISTHIKVKSEEMIKVVEKSEKETVIVEGQTEEIRVTEGVTEEEDKEAQGQEGEEAEEGEEKEEEEGAAATSPPAEEAASPEKETKSRVKEEAKSPGEAKSPGEAKSPAEAKSPGEAKSPGEAKSPGEAKSPAEPKSPAEPKSPAEAKSPAEPKSPATVKSPGEAKSPSEAKSPAEAKSPAEAKSPAEAKSPAEAKSPAEAKSPAEAKSPATVKSPGEAKSPSEAKSPAEAKSPAEAKSPAEAKSPAEVKSPGEAKSPAEPKSPAEAKSPAEVKSPAEAKSPAEVKSPGEAKSPAAVKSPAEAKSPAAVKSPGEAKSPGEAKSPAEAKSPAEAKSPIEVKSPEKAKTPVKEGAKSPAEAKSPEKAKSPVKEDIKPPAEAKSPEKAKSPVKEGAKPPEKAKPLDVKSPEAQTPVQEEAKHPTDIRPPEQVKSPAKEKAKSPEKEEAKTSEKVAPKKEEVKSPVKEEVKAKEPPKKVEEEKTLPTPKTEAKESKKDEAPKEAPKPKVEEKKETPTEKPKDSTAEAKKEEAGEKKKAVASEEETPAKLGVKEEAKPKEKTETTKTEAEDTKAKEPSKPTETEKPKKEEMPAAPEKKDTKEEKTTESRKPEEKPKMEAKVKEDDKSLSKEPSKPKTEKAEKSSSTDQKESQPPEKTTEDKATKGEK
B7: Protein disulfide-isomerase A3 (protein, UniProt P27773 25-505, looked up)
Protein disulfide-isomerase A3: SDVLELTDENFESRVSDTGSAGLMLVEFFAPWCGHCKRLAPEYEAAATRLKGIVPLAKVDCTANTNTCNKYGVSGYPTLKIFRDGEEAGAYDGPRTADGIVSHLKKQAGPASVPLRTEEEFKKFISDKDASVVGFFRDLFSDGHSEFLKAASNLRDNYRFAHTNIESLVKEYDDNGEGITIFRPLHLANKFEDKTVAYTEKKMTSGKIKKFIQDSIFGLCPHMTEDNKDLIQGKDLLTAYYDVDYEKNAKGSNYWRNRVMMVAKKFLDAGHKLNFAVASRKTFSHELSDFGLESTTGEVPVVAIRTAKGEKFVMQEEFSRDGKALEQFLQEYFDGNLKRYLKSEPIPESNEGPVKVVVAENFDDIVNEEDKDVLIEFYAPWCGHCKNLEPKYKELGEKLSKDPNIVIAKMDATANDVPSPYEVKGFPTIYFSPANKKLTPKKYEGGRELNDFISYLQREATNPPIIQEEKPKKKKKAQEDL
B8: Monocarboxylate transporter 1 (protein, UniProt P53986 1-493, looked up)
Monocarboxylate transporter 1: MPPAIGGPVGYTPPDGGWGWAVLVGAFISIGFSYAFPKSITVFFKEIEVIFSATTSEVSWISSIMLAVMYAGGPISSILVNKYGSRPVMIAGGCLSGCGLIAASFCNTVQELYLCIGVIGGLGLAFNLNPALTMIGKYFYKKRPLANGLAMAGSPVFLSTLAPLNQAFFDIFDWRGSFLILGGLLLNCCVAGSLMRPIGPEQVKLEKLKSKESLQEAGKSDANTDLIGGSPKGEKLSVFQTINKFLDLSLFTHRGFLLYLSGNVVMFFGLFTPLVFLSSYGKSKDFSSEKSAFLLSILAFVDMVARPSMGLAANTKWIRPRIQYFFAASVVANGVCHLLAPLSTTYVGFCVYAGVFGFAFGWLSSVLFETLMDLIGPQRFSSAVGLVTIVECCPVLLGPPLLGRLNDMYGDYKYTYWACGVILIIAGIYLFIGMGINYRLLAKEQKAEEKQKREGKEDEASTDVDEKPKETMKAAQSPQQHSSGDPTEEESPV
B9: Alpha-1-antitrypsin 1-2 (protein, UniProt P22599 25-413, looked up)
Alpha-1-antitrypsin 1-2: EDVQETDTSQKDQSPASHEIATNLGDFAISLYRELVHQSNTSNIFFSPVSIATAFAMLSLGSKGDTHTQILEGLQFNLTQTSEADIHKSFQHLLQTLNRPDSELQLSTGNGLFVNNDLKLVEKFLEEAKNHYQAEVFSVNFAESEEAKKVINDFVEKGTQGKIVEAVKELDQDTVFALANYILFKGKWKKPFDPENTEEAEFHVDKSTTVKVPMMMLSGMLDVHHCSILSSWVLLMDYAGNASAVFLLPEDGKMQHLEQTLNKELISKILLNRRRRLVQIHIPRLSISGDYNLKTLMSPLGITRIFNNGADLSGITEENAPLKLSKAVHKAVLTIDETGTEAAAATVFEAVPMSMPPILRFDHPFLFIIFEEHTQSPIFVGKVVDPTHK

Tested on: coronal proteins on NPs
Set-up: species or system mouse
Details: for V5 Sera_Nanoparticles Quantitative Value (Normalized Total Spectra): HBPE-NPs incubated 1 h with IAV day 5 (V5) mouse sera, 20:1 NP:sera, centrifuged and washed; for V5 Sera Alone (Control) Quantitative Value (Normalized Total Spectra): IAV day 5 (V5) mouse sera alone, no NPs (sera-only control)

Molecule	V5 Sera_Nanoparticles Quantitative Value (Normalized Total Spectra)	V5 Sera Alone (Control) Quantitative Value (Normalized Total Spectra)
B1	1.0879	0
B2	1.0879	0
B3	0	18.505
B4	1.0879	0
B5	35.901	55.514
B6	0	0.9252
B7	1.0879	0
B8	1.0879	0
B9	35.901	58.289
